Patent publication US20090068207A1, “Compositions Containing Beta 2-Glycoprotein I-Derived Peptides for the Prevention and/or Treatment of Vascular Disease” (Vascular Biogenics Ltd., priority 2005, published 2009)

Experiment: Body weight, plasma cholesterol and triglyceride after nasal administration (LDL-RD mice)
Type: in vivo
Details: END, intranasal 10 μg/mouse every other day for 5 days, then Western diet, mean ± S.E

## HSP-65: recombinant mycobacterial heat shock protein HSP 65
  Weight: 26.8 ± 0.9 g
